A mixed list of measured activities; the numbers were collected in NIAID ChemDB.

Common to all: enzyme or target tests; species: Hepatitis C virus; protein: NS3 protease; read-out: IC50

ICn is the concentration giving n% inhibition. Rows are shuffled and stem from different studies.

SMILES	result
N[C@@H](CCC(=O)O)C(=O)N[C@H](C(=O)N[C@@H](CCC(=O)O)C(=O)N[C@@H](CC1CCCCC1)C(=O)N[C@@H](CS)C(=O)O)C(c1ccccc1)c1ccccc1	1.4 µM
C/C(=C1/SC(=S)N(CC(=O)O)C1=O)c1ccc2c(ccc3ccccc32)c1	17 µM
N[C@H](C(=O)N[C@@H](CCC(=O)O)C(=O)N[C@@H](CC1CCCCC1)C(=O)N[C@@H](CS)C(=O)O)C(c1ccccc1)c1ccccc1	30 µM
CC(C)C[C@H](NC(=O)C1Cc2ccccc2N1)C(=O)N[C@@H](CC(F)F)C(=O)C(=O)O	>100 µM
CSCC[C@H](NC(=O)[C@H](CCC(=O)O)NC(=O)[C@@H](N)CC(=O)O)C(=O)N[C@@H](CCC(=O)O)C(=O)N[C@@H](CC1CCCCC1)C(=O)N[C@@H](CS)C(=O)O	0.3 µM
CC(=O)OCCC/C(=C1/SC(=S)N(CC(=O)O)C1=O)c1ccc(Br)cc1	14.5 µM
CCCC(=O)c1cc2c(c(O)c1C)C(=O)C(=O)c1c(O)cccc1-2	2.5 µg/mL
CSCC[C@H](NC(=O)[C@H](CCC(=O)O)NC(=O)[C@@H](N)CC(=O)O)C(=O)N[C@@H](CCC(=O)O)C(=O)N[C@@H](CCC(=O)O)C(=O)N[C@@H](CS)C(=O)O	1 µM
CC[C@H](C)[C@H](NC(=O)[C@H](CC(C)C)NC(=O)[C@@H](CC(C(=O)O)C(=O)O)NC(=O)[C@H](CC(=O)O)NC(C)=O)C(=O)N[C@@H](CC1CCCCC1)C(=O)N[C@@H](CS)C(=O)O	0.0015 µM
CC(=O)OCCC/C(=C1/SC(=S)N(CC(=O)O)C1=O)c1ccc(Br)cc1	2.3 µg/mL
C=CCC(NC(=O)[C@H](CC(C)C)NC(=O)[C@@H](NC(=O)[C@H](Cc1ccccc1C)NC(=O)[C@H](CCC(=O)O)NC(=O)[C@H](CC(=O)O)NC(=O)CCC(=O)O)C(C)(C)C)B(O)O	0.034 µM
O=C(Nc1cccc(Cl)c1Cl)c1c(O)cc(O)c([N+](=O)[O-])c1O	10.1 µg/mL
CC(C)C[C@H](NC(=O)C1(C2CCCCC2)Cc2ccccc2N1)C(=O)N[C@@H](CC(F)F)C(=O)C(=O)O	>100 µM
CSCC[C@H](NC(=O)[C@H](CCC(=O)O)NC(=O)[C@@H](N)CC(=O)O)C(=O)N[C@@H](CCC(=O)O)C(=O)N[C@@H](CCC(=O)O)C(=O)N[C@@H](CO)C(=O)O	41 µM
O=C(NCCOc1ccc(Oc2ccccc2)cc1)c1c(O)cc(O)c([N+](=O)[O-])c1O	76.9 µM

Again, the opening 2 rows:

| SMILES | result |
|---|---|
| N[C@@H](CCC(=O)O)C(=O)N[C@H](C(=O)N[C@@H](CCC(=O)O)C(=O)N[C@@H](CC1CCCCC1)C(=O)N[C@@H](CS)C(=O)O)C(c1ccccc1)c1ccccc1 | 1.4 µM |
| C/C(=C1/SC(=S)N(CC(=O)O)C1=O)c1ccc2c(ccc3ccccc32)c1 | 17 µM |